Reference: PubChem BioAssay AID1224833 (University of Georgia, 2016)
The whole screen tested about 12,000 reagents; below is a random part of them. Of all reagents, about 5,600 (46%) are marked active. 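Active calls cover z-scores past 1 in both directions, so they include lowered as well as raised rotavirus replication.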 Unmarked entries are inactive.

Assay: 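Host factors restraining rotavirus as candidate antiviral genes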 (primary screen)
Cells: monkey MA104 kidney cells
Reagent: siRNA pool against human genes, 50 nM
Time to read-out: 48 h knock-down before infection; read 24 h after infection
Conditions: infection with rotavirus strain RV3 two days after transfection; infectious dose for this stage not given
Detection: 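Rotavirus antigen per well by fluorescent immunoassay, normalised to non-targeting control wells on each plate and given as a standard z-score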
Reading the numbers: z-score vs non-targeting control: higher = more rotavirus replication than with non-targeting control
Call rule: In these data the active calls have z-score vs non-targeting control at about -1 or lower, or at about 1 or higher
Meaning of the calls: active = z-score beyond 1 either way; inactive = z-score within 1 of zero

| gene | PubChem SID | z-score vs non-targeting control |
| --- | --- | --- |
| FKBPL | SID329580528 | 1.3 (active) |
| LRRTM4 | SID329581132 | -1.01 (active) |
| DMC1 | SID329577559 | -1.42 (active) |
| HS6ST1 | SID329576574 | -0.54 |
| C19orf25 | SID329582968 | -1.88 (active) |
| SLC4A7 | SID329576624 | -1.71 (active) |
| CGB1 | SID329582206 | -1.09 (active) |
| CPAMD8 | SID329578510 | 0.285 |
| HDGF | SID329573948 | 0.796 |
| CYTH3 | SID329576507 | -1.5 (active) |
| PRDM1 | SID329572920 | 0.881 |
| TMOD2 | SID329578681 | -0.256 |
| CHMP1B | SID329580175 | 0.52 |
| TAPBP | SID329575562 | 0.992 |
| TNFRSF1B | SID329575682 | -1.59 (active) |
| CASR | SID329573018 | 2.21 (active) |
| TRAPPC1 | SID329580409 | -0.712 |
| RTN3 | SID329577093 | -1.03 (active) |
| DENND2D | SID329581097 | 1.17 (active) |
| USP6 | SID329576423 | 1.43 (active) |
| SESN3 | SID329582857 | -2.09 (active) |
| TMEM198 | SID329582663 | 1.54 (active) |
| HPS1 | SID329574038 | -0.441 |
| FCGR3B | SID329573620 | -1.24 (active) |
| DIRC1 | SID329582290 | 1.15 (active) |
| APPBP2 | SID329577207 | -0.599 |
| MOG | SID329574473 | -0.842 |
| YTHDF2 | SID329579071 | 0.938 |
| CHAMP1 | SID329583841 | -2.52 (active) |
| EIF4E | SID329573510 | -2.01 (active) |
| SLC30A5 | SID329580718 | -1.01 (active) |
| CDH3 | SID329573104 | 0.539 |
| BTN3A2 | SID329577542 | -0.693 |
| NXF1 | SID329577187 | -4.66 (active) |
| CD47 | SID329573085 | 0.985 |
| HAAO | SID329578018 | -1.23 (active) |
| LBH | SID329581325 | 1.19 (active) |
| SLC12A2 | SID329575368 | 1.58 (active) |
| DCAF16 | SID329579441 | -1.29 (active) |
| GTF2F1 | SID329573890 | -1.39 (active) |
| SFTPA2 | SID329584731 | -0.526 |
| SELENOP | SID329575296 | -2.04 (active) |
| ANXA5 | SID329572775 | 1.24 (active) |
| EIF3B | SID329576222 | -2.32 (active) |
| GOLT1B | SID329578865 | 2.43 (active) |
| HCLS1 | SID329573942 | 0.554 |
| SPMAP2 | SID329579008 | 2.01 (active) |
| FOXA3 | SID329573992 | -0.505 |
| DHPS | SID329573402 | -3.12 (active) |
| USHBP1 | SID329581468 | 0.308 |
| TRAF3IP2 | SID329577346 | 2.3 (active) |
| CLXN | SID329580933 | 1.38 (active) |
| STARD5 | SID329581250 | -0.305 |
| KRTAP8-1 | SID329584007 | 0.267 |
| CREB3L1 | SID329581982 | -0.689 |
| CMAS | SID329579928 | -1.78 (active) |
| ADO | SID329581756 | -0.999 |
| IRX6 | SID329580866 | -0.517 |
| MSH2 | SID329574484 | -1.46 (active) |
| BTLA | SID329583056 | 2.42 (active) |
| LUM | SID329574344 | -1.27 (active) |
| ZNF687 | SID329580311 | -0.756 |
| APOOL | SID329582777 | -0.352 |
| CNOT9 | SID329576434 | 0.63 |
| GEMIN4 | SID329578807 | 0.498 |
| TMEM26 | SID329583511 | -0.0856 |
| CIITA | SID329574444 | -0.976 |
| NOL9 | SID329580967 | -1.49 (active) |
| GDF6 | SID329584453 | -0.9 |
| INSC | SID329584304 | 1.79 (active) |
| KDM6A | SID329575781 | -0.198 |
| CTNNBIP1 | SID329580130 | -1.84 (active) |
| DPH3 | SID329583930 | -0.761 |
| ONECUT1 | SID329573995 | 1.84 (active) |
| ZNF225 | SID329575931 | -0.381 |
| OSTC | SID329580424 | 1.39 (active) |
| CBFA2T3 | SID329573023 | 0.945 |
| TOP2A | SID329575693 | -1.04 (active) |
| TCL1B | SID329576691 | 0.205 |
| INTS3 | SID329580755 | -0.672 |
| MTR | SID329574506 | -0.564 |
| TCEAL3 | SID329581815 | -0.467 |
| CDH6 | SID329573107 | 0.704 |
| IGFBP2 | SID329574116 | 0.0075 |
| TNNI1 | SID329575684 | -1.31 (active) |
| CD93 | SID329577724 | 1.41 (active) |
| CDC45 | SID329576057 | -0.281 |
| NADSYN1 | SID329579625 | -6.81 (active) |
| SLC3A1 | SID329575347 | 0.981 |
| SKA3 | SID329583574 | -0.575 |
| SCAMP5 | SID329583351 | 1.32 (active) |
| VPS37B | SID329580975 | 1.19 (active) |
| TXNRD3 | SID329584691 | 0.534 |
| COL13A1 | SID329573217 | -1.99 (active) |
| OR5C1 | SID329584457 | 0.428 |
| GTPBP1 | SID329576661 | 1.34 (active) |
| SYCE1 | SID329582111 | -1.12 (active) |
| COPA | SID329573222 | -1.66 (active) |
| FBF1 | SID329581831 | -2.38 (active) |
| SKA2 | SID329584173 | 0.276 |
| EMP3 | SID329573533 | -0.826 |
| GCDH | SID329573735 | 1.06 (active) |
| ACAA1 | SID329572662 | -1.4 (active) |
| SPINK7 | SID329581685 | -1.51 (active) |
| NPY2R | SID329574667 | -0.676 |
| RABL6 | SID329579809 | -0.241 |
| MDFIC | SID329578745 | 0.385 |
| RAI1 | SID329577340 | 0.359 |
| LRIG3 | SID329582412 | -0.755 |
| ZRSR2 | SID329576037 | 0.654 |
| TOX | SID329576775 | -0.537 |
| TAAR8 | SID329581408 | 0.977 |
| KRT73 | SID329584001 | -1.01 (active) |
| TMEM131L | SID329577889 | -0.686 |
| ASTN1 | SID329572842 | 1.5 (active) |
| UTP4 | SID329581775 | -0.343 |
| FCRL1 | SID329582264 | -0.0534 |
| DRD1 | SID329573445 | 3.43 (active) |
| AKR1C4 | SID329573157 | -2.18 (active) |
| CFAP43 | SID329581177 | -0.537 |
| SPP2 | SID329575465 | 0.831 |
| MACIR | SID329581946 | 1.86 (active) |
| ATP5PB | SID329572866 | 0.467 |
| NKIRAS2 | SID329578600 | -0.963 |
| IGFBP7 | SID329574121 | 0.859 |
| AKIRIN1 | SID329580934 | 1.45 (active) |
| LGALS9 | SID329574295 | 0.661 |
| CARD11 | SID329581619 | 0.796 |
| AOPEP | SID329581768 | 1.22 (active) |
| METAP2 | SID329577469 | 0.622 |
| RPS13 | SID329575195 | -0.094 |
| ZNF74 | SID329575878 | -0.75 |
| AP2A2 | SID329572715 | -0.38 |
| MSX1 | SID329574493 | -2.17 (active) |
| RFTN1 | SID329577855 | -0.935 |
| TMEM209 | SID329581779 | 0.511 |
| SLC35F6 | SID329579501 | -0.754 |
| GANC | SID329573717 | -1.4 (active) |
| GPR88 | SID329579252 | -0.563 |
| AGRP | SID329572725 | -1.18 (active) |
